Results from PMC11925246 (Journal of Bacteriology, 2025).

Legend:
popA expression = settings: 0.5 mM malic acid, popA-lacZ Δrsc1598 resting cells, compared to the wild type (Fig. 7A)
[1] = system: hrpB expression in rsc1598 mutant; settings: 0.5 mM malic acid, hrpB-lacZ Δrsc1598 resting cells versus hrpB-lacZ (Fig. 7B)

O=C(O)CC(O)C(=O)O (centres unmarked) [Malic acid, malic acid]
popA expression induced by malic acid in rsc1598 mutant (popA expression): significantly reduced popA expression compared to the wild type | hrpB expression induced by malic acid in rsc1598 mutant [1]: reduced hrpB expression
